Results deposited as PubChem BioAssay AID1259414 (Drosophila RNAi Screening Center, 2018).
Aim: 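Host factors increasing or decreasing Wolbachia levels in cultured fly cells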 (primary screen). System: Drosophila JW18 cells infected with Wolbachia. Reagents: long dsRNA against Drosophila genes, 0.25 µg dsRNA per well of a 384-well plate. Time to read-out: 5 days. Treatment: cells persistently infected with Wolbachia before knock-down; no added drug. Measurement: 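Automated imaging of bacterial rRNA staining divided by host cell count, reported as plate-normalised robust z-score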. Direction: Wolbachia per cell robust z: higher = more Wolbachia per host cell than the plate typical. Rule for the call: 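Hit when robust z is 1.5 or more, or -1.5 or less, in at least two of three replicates; excludes dsRNAs with several or no targets, genes not expressed in JW18 and well A1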.
The screen tested about 24,000 reagents; shown is an unselected part of those that have a named target and a result. Over the whole deposit, about 1,210 (5%) were called active. 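Inactive calls also include excluded dsRNAs with several or no targets, genes unexpressed in JW18, and well A1, regardless of score.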 Unmarked entries are inactive. Names joined by + are all predicted targets of the reagent. Reagent sequences are not shown.

predicted target,dsRNA,"Wolbachia per cell robust z, rep 1","Wolbachia per cell robust z, rep 2","Wolbachia per cell robust z, rep 3"
CG15572,DRSC24999,1.18,-7.86,0.525
Osi13 (Osiris 13),DRSC12281,-0.176,0.48,0.786
CR40354 (pseudo),DRSC38777,0.358,-5.19,-0.0141
CG10139,DRSC05972,0.781,-1.16,0.26
CG44153,DRSC02228,-0.551,0.287,0.88
CG44153,DRSC02229,0.695,-5.19,0.0646
CG44153,DRSC02231,0.861,-4.52,-0.486
CG44153,DRSC02233,0.538,0.0508,-0.113
CG44153,DRSC02902,-3.88,-3.28,-0.174
CG44153,DRSC02903,-0.393,0.0191,-1.02
CG44153,DRSC28467,-1.09,-0.891,-0.994
CG44153,DRSC38921,-2.63,0.216,-0.384
nonA-l (nonA-like),DRSC17017,0.206,1.28,-0.18
nonA-l (nonA-like),DRSC25387,0.00229,0.742,0.852
CG6602,DRSC10673,-0.624,0.0481,-0.432
CG31760,DRSC02590,-1.24,-0.379,0.764
CG31760,DRSC27108,0.387,1.42,-0.534
Edg84A (Ecdysone-dependent gene 84A),DRSC12594,-0.29,-1.42,-0.708
CG34273,DRSC38819,0.372,-1.96,-0.688
CG6607,DRSC16073,0.471,0.54,0.829
Cht5 (Chitinase 5),DRSC16470,-1.28,-0.809,0.764
Cht5 (Chitinase 5),DRSC26080,-0.27,0.279,0.148
CG12035,DRSC08238,0.124,1.01,0.108
CG15642 + CG6299 + CG6294,DRSC19981,-0.312,-0.162,0.93
CG30197,DRSC22394,-0.743 (active),-1.66,-2.11
CG17752,DRSC15262,0.335 (active),-3.74,-5.85
CG17752,DRSC26265,-0.257,0.779,1.28
CG30120 + Lamtor2,DRSC05726,0.61,5.11,1.23
CG30120 + Lamtor2,DRSC06922,-3.28,-0.267,-1.18
CG32277,DRSC08196,0.311,-4.35,0.317
Dhrs4 (Dehydrogenase/reductase 4),DRSC09773,0.953,0.275,-1.42
CG11786,DRSC14389,-1.41,-1.66,-1.18
Acn (Acinus),DRSC02062,0.214,-0.504,-1.53
Acn (Acinus),DRSC29245,-1.36,-0.796,-1.38
CG43691,DRSC06650,-0.555,-3.23,-3.85
CG43691,DRSC06651,-0.0266,-1.22,-0.036
CG11398,DRSC18625,-0.242,-1.61,0.625
RpS6 (Ribosomal protein S6),DRSC18712,6.05 (active),3.15,4.05
RpS6 (Ribosomal protein S6),DRSC25010,4.31 (active),6.11,7.01
CG7366,DRSC10825,-0.951,1.01,0.88
CG7366,DRSC29988,0.0119,1.05,-0.461
mei-W68 (meiotic W68),DRSC07649,0.799,1.13,0.41
CG8230,DRSC05931,-2.32,0.187,0.548
CG15701,DRSC06572,0.176,-1.36,-1.43
Rab18,DRSC18702,0.457,0.191,0.255
Rab18,DRSC26667,1.22,-1.29,0.837
CG31777,DRSC00201,0.498,0.319,0.247
nAChRbeta1 (nicotinic Acetylcholine Receptor beta1),DRSC08097,-1.93,-0.518,-0.265
nAChRbeta1 (nicotinic Acetylcholine Receptor beta1),DRSC08728,-7.24,-8.81,-1.29
Ubi-p63E (Ubiquitin-63E),DRSC22016,0.461,0.686,0.341
aph-1 (anterior pharynx defective 1),DRSC00547,-0.0572,-0.754,0.672
Syt7 (Synaptotagmin 7),DRSC17130,0.947,0.863,-0.666
Syt7 (Synaptotagmin 7),DRSC17159,-1.02,-0.992,-2.92
SelG (Selenoprotein G),DRSC19808,-0.282,0.25,0.779
SelG (Selenoprotein G),DRSC25206,1.38,-0.284,-0.0579
Rpn10 (Regulatory particle non-ATPase 10),DRSC11876,0.343,0.768,1.2
aln (allnighter),DRSC08240,0.184,-3.04,-0.493
l(2)41Ab (lethal (2) 41Ab),DRSC21007,-0.129,0.589,-0.108
l(2)41Ab (lethal (2) 41Ab),DRSC37749,1.55,-0.495,0.0465
Cyp313a1 (Cytochrome P450 313a1),DRSC16624,0.666,0.371,0.259
Cyp313a1 (Cytochrome P450 313a1),DRSC28812,0.38,0.225,0.174
D12,DRSC03311,-0.297,-0.138,-1.39
retn (retained),DRSC04679,-2.01,-1.43,-0.682
retn (retained),DRSC27544,0.997,-0.0891,0.0956
Acp53C14b (Accessory gland protein 53C14b),DRSC06569,-1.83,0.17,1.57
Rh50,DRSC08692,-0.52,-0.0486,-4.94
trv (trivet),DRSC13846,-0.849,-3.97,-1.96
trv (trivet),DRSC14560,0.333,-1.42,-0.0869
trv (trivet),DRSC14561,0.451,-0.227,-0.706
trv (trivet),DRSC25527,0.44,0.85,0.494
trv (trivet),DRSC25789,0.263,-0.164,0.987
